Measurements reported in patent publication US20220184071A1, “GEPOTIDACIN FOR USE IN THE TREATMENT OF BACTERIAL URINARY TRACT INFECTIONS” (GlaxoSmithKline Intellectual Property Development Limited, priority 2019, published 2022).
Where “and” joins values, the source holds several entries; their conditions need not be identical. Identical values can stand only once.

Assays:
E. coli = assay: Phase IIa PK/PD and microbiological response by uropathogen; assay type: in vivo, human; conditions: 4 participants with a qualifying E. coli uropathogen; 1500 mg BID oral
Method: This phase IIa single center study evaluated the safety, tolerability, pharmacokinetics, and efficacy of oral gepotidacin 1500 mg BID for 5 days in female subjects with acute cystitis. Clean catch mid-stream urine specimens were obtained for quantitative culture by standard methods. Urine samples were taken from all participants pre-treatment (baseline) and at all post-baseline visits. All urine samples were sent to a central laboratory (PPD Global Clinical Laboratories, Highland Heights, Ky., USA) for Gram stain, quantitative culture, pathogen identification and susceptibility testing. See FIG. 1 for participant disposition and study outline.
Susceptibility testing by CLSI broth microdilution and gradient diffusion (fosfomycin only) was conducted (CLSI, 2015, Methods for dilution antimicrobial susceptibility tests for bacteria that grow aerobically; approved standard-tenth edition; and CLSI, 2018. Performance Standards for Antimicrobial Susceptibility Testing; Twenty-seventh Informational Supplement M100-S28). […]
For pharmacokinetic assessments, serial blood and urine samples for the assessment of gepotidacin PK concentrations were collected out to 12 hours post dose (T) following the morning dose on Days 1 and 4. […] PK concentrations of gepotidacin in plasma and urine were measured using a validated LC-MS/MS bio-analytical assay.

[1] = tested on: qualifying Enterobacteriaceae uropathogens; assay: Phase IIa PK/PD, participants with steady state PK; assay type: in vivo, human; conditions: 4 participants, microbiological successes at TOC

O=c1ccc2ncc(=O)n3c2n1C[C@H]3CN1CCC(NCc2cc3c(cn2)OCCC3)CC1 [gepotidacin, (2R)-2-({4-[(3,4-dihydro-2H-pyrano[2,3-c]pyridin-6-ylmethyl)amino]-1-piperidinyl}methyl)-1,2-dihydro-3H,8H-2a,5,8a-triazaacenaphthylene-3,8-dione]
mean gepotidacin free plasma AUC(0-24)/MIC ratio (E. coli): 37.0 | mean gepotidacin urine AUC(0-24)/MIC ratio (E. coli): 15,914 | plasma fAUC24h/MICs ranged [1]: 7 to 90.5 and 6.99-90.5 | urine AUC24h/MICs ranged [1]: 1292 to 121,698
